Compound potency records, mixed from different reports. Data source: NIAID ChemDB in PubChem.

Common to all: whole-cell or culture tests; species: Staphylococcus aureus; measure: MIC

Conditions beyond the fields shown may differ between rows.

smiles | strain or isolate | result
CC(=S)NC[C@H]1CN(c2ccc(-c3nnc(CN(C)C=O)s3)c(F)c2)C(=O)O1 | UC9213 (methicillin-susceptible) | <0.5 µg/mL
CC[C@H]1OC(=O)[C@H](C)C(=O)[C@H](C)[C@@H](O[C@@H]2O[C@H](C)C[C@H](N(C)C)[C@H]2O)[C@@]2(C)C[C@@H](C)C(=NC(C)=O)[C@H](C)C(OC/C(=N\OCc3ccccc3)CO2)[C@]1(C)O | 27660 (erythromycin-resistant) | 0.13 µg/mL
Nc1nc(-n2cc(C(=O)O)c(=O)c3cc(F)c(N4CC(O)C4)c(Cl)c32)c(F)cc1F | 209P | 0.013 µg/mL
C=C1COC2[C@@H](C)C(=NC(C)=O)[C@H](C)C[C@@](C)(OC1)[C@H](O[C@@H]1O[C@H](C)C[C@H](N(C)C)[C@H]1O)[C@@H](C)C(=O)[C@@H](C)C(=O)O[C@H](CC)[C@@]2(C)O | 27660 (erythromycin-resistant) | 2 µg/mL
Clc1ccc2c(c1)C1OCCCC1C(c1c[nH]c3ccc(Br)cc13)N2 | Methicillin-resistant | <0.39 µg/mL
C#CCOC[C@H]1/C=C(C)/C=C/C(=O)[C@H](C)CC(C=O)[C@H](O[C@@H]2O[C@H](C)[C@@H](O)[C@H](N(C)C)[C@H]2O)[C@@H](C)[C@H](O)CC(=O)O[C@@H]1CC | 25923 (erythromycin-susceptible) | 0.5 µg/mL
CC(C)(O)CCCCNc1cc2c(cc1F)c(=O)c(C(=O)O)cn2C1CC1 | ATCC 6538P | >100 µg/mL
C[C@@H]1N[C@H]2C[C@@H]1N(c1nc3c(cc1F)c(=O)c(C(=O)O)cn3C(C)(C)C)C2 | A9537 | 0.06 µg/mL
O=C(O)c1cn(C2CC2)c2cc(N3CCOCC3)c(F)cc2c1=O | ATCC 6538P | 1.56 µg/mL
CCCCCCCCCCCC[N+](C)(C)COCC | ATCC33592 | 4.87 µM
O=C(O)c1cn(C2CC2)c2cc(NCCCCCCO)c(F)cc2c1=O | ATCC 5278 (methicillin-resistant) | >100 µg/mL
CCCCCCCCCCCC[N+](C)(C)COCC(CC)CCC | ATCC 6538 | 12.8 µM
Nc1nc(-n2cc(C(=O)O)c(=O)c3cc(F)c(N4CCNCC4)c(F)c32)c(F)cc1F | 209P | 0.1 µg/mL
N#Cc1ccc(N2CCN(c3ccc(N4C[C@H](CNc5cnccn5)OC4=O)cc3F)CC2)nn1 | 004 (methicillin quinolone-resistant) | 0.5 µg/mL
Clc1ccc2nc(-c3c[nH]c4ccc(Br)cc34)ccc2c1 | Methicillin-resistant | 0.6 µg/mL
CC[C@H]1OC(=O)[C@H](C)C(=O)[C@H](C)[C@@H](O[C@@H]2O[C@H](C)C[C@H](N(C)C)[C@H]2O)[C@@]2(C)C[C@@H](C)C(=NC(C)=O)[C@H](C)[C@@H](OC/C(=N\OCC#Cc3ccc(N)nc3)CO2)[C@]1(C)O | 33591 (erythromycin methicillin-resistant) | >64 µg/mL
CCCCCCCCCCCC[N+](C)(C)COC(CC)CCCCC | ATCC 6538 | 2.55 µM
CC[C@H]1OC(=O)C[C@@H](O)[C@H](C)[C@@H](O[C@@H]2O[C@H](C)[C@@H](O)[C@H](N(C)C)[C@H]2O)C(C=O)C[C@@H](C)C(=O)/C=C/C(C)=C/[C@@H]1COC(=O)Nc1ccc([N+](=O)[O-])cc1 | 25923 (erythromycin-susceptible) | 1 µg/mL
CCCCCCCC[N+](C)(C)COC1CCCCCCCCCCC1 | ATCC 6538 | 2.56 µM
CN(C)CCNc1cc2c(cc1F)c(=O)c(C(=O)O)cn2C1CC1 | ATCC 5278 (methicillin-resistant) | >100 µg/mL
Nc1nc(-n2cc(C(=O)O)c(=O)c3cc(F)c(N4CC(O)C4)c(F)c32)c(F)cc1F | 209P | 0.025 µg/mL
O=C(CO)N[C@H]1CCN(c2ccc(N3C[C@H](CNc4ccon4)OC3=O)cc2F)C1 | 078 (oxford) | 0.5 µg/mL
CC(=S)NC[C@H]1CN(c2ccc(-c3nnc(CN(C)S(C)(=O)=O)s3)c(F)c2)C(=O)O1 | UC9213 (methicillin-susceptible) | 2 µg/mL
CNC(=O)N[C@H]1CCN(c2ccc(N3C[C@H](CNc4ccon4)OC3=O)cc2F)C1 | 004 (methicillin quinolone-resistant) | 0.5 µg/mL
O=C(O)c1cn(-c2ccc(F)cc2F)c2cc(NCCO)c(F)cc2c1=O | ATCC 6538P | 0.78 µg/mL
CCCCCCCCCCCC[N+](C)(C)COC1CCCCCC1 | ATCC 6538 | 13.3 µM
CC[C@H]1OC(=O)C[C@@H](O)[C@H](C)[C@@H](O[C@@H]2O[C@H](C)[C@@H](O)[C@H](N(C)C)[C@H]2O)C(C=O)C[C@@H](C)C(=O)/C=C/C(C)=C/[C@@H]1COCc1ccccc1 | 25923 (erythromycin-susceptible) | 0.13 µg/mL
CC[C@H]1OC(=O)[C@H](C)C(=O)[C@H](C)[C@@H](O[C@@H]2O[C@H](C)C[C@H](N(C)C)[C@H]2O)[C@@]2(C)C[C@@H](C)C(=NC(C)=O)[C@H](C)[C@@H](OC/C(=N\OCCCc3ccccc3)CO2)[C@]1(C)O | 27660 (erythromycin-resistant) | 0.5 µg/mL
CC(=O)NC[C@H]1CN(c2ccc(-n3cnc(C=CC#N)c3)c(F)c2)C(=O)O1 | Methicillin- and quinolone-resistant | 1 µg/mL
COC(=O)N1CCN(c2ccc(N3C[C@H](COc4ccon4)OC3=O)cc2F)CC1 | 004 (methicillin quinolone-resistant) | 2 µg/mL
CC(=S)NC[C@H]1CN(c2ccc(-c3nnc([C@@H]4CCCN4)s3)c(F)c2)C(=O)O1 | UC9213 (methicillin-susceptible) | 2 µg/mL
CC[C@H]1OC(=O)[C@H](C)C(=O)[C@H](C)[C@@H](O[C@@H]2O[C@H](C)C[C@H](N(C)C)[C@H]2O)[C@@]2(C)C[C@@H](C)C(=NC(C)=O)[C@H](C)[C@@H](OC/C(=N\OCC#Cc3ncccn3)CO2)[C@]1(C)O | 25923 (erythromycin-susceptible) | 0.25 µg/mL
N#Cc1ccc(N2CCN(c3ccc(N4C[C@H](CNc5ccon5)OC4=O)cc3F)CC2)nn1 | 122 (novobiocin-resistant) | 2 µg/mL
CC(C)(C)n1cc(C(=O)O)c(=O)c2cc(F)c(N3C[C@H]4C[C@@H]3CN4)nc21 | A9537 | 0.03 µg/mL
CC[C@H]1OC(=O)C[C@@H](O)[C@H](C)[C@@H](O[C@@H]2O[C@H](C)[C@@H](O)[C@H](N(C)C)[C@H]2O)C(C=O)C[C@@H](C)C(=O)/C=C/C(C)=C/[C@@H]1COCOC | 25923 (erythromycin-susceptible) | 0.5 µg/mL
NCCCCCCCCNc1cc2c(cc1F)c(=O)c(C(=O)O)cn2C1CC1 | ATCC 6538P | >100 µg/mL
CC(=S)NC[C@H]1CN(c2ccc(-c3nnc([C@@H](N)C(C)C)s3)c(F)c2)C(=O)O1 | UC9213 (methicillin-susceptible) | 1 µg/mL

The last 3 rows once more:

CC[C@H]1OC(=O)C[C@@H](O)[C@H](C)[C@@H](O[C@@H]2O[C@H](C)[C@@H](O)[C@H](N(C)C)[C@H]2O)C(C=O)C[C@@H](C)C(=O)/C=C/C(C)=C/[C@@H]1COCOC ; strain or isolate: 25923 (erythromycin-susceptible) ; result: 0.5 µg/mL
NCCCCCCCCNc1cc2c(cc1F)c(=O)c(C(=O)O)cn2C1CC1 ; strain or isolate: ATCC 6538P ; result: >100 µg/mL
CC(=S)NC[C@H]1CN(c2ccc(-c3nnc([C@@H](N)C(C)C)s3)c(F)c2)C(=O)O1 ; strain or isolate: UC9213 (methicillin-susceptible) ; result: 1 µg/mL